A mixed list of measured activities; the numbers were collected in NIAID ChemDB.

Shared fields: growth or infection tests; species: Cryptococcus neoformans; read-out: MIC

Neighbouring rows are from separate reports. Blank or dashed fields: not listed here.

structure	strain or isolate	method	result
COc1cc(O)c2c(c1)C(=O)c1c(cc3c(c1O)-c1c(cc(C)c(C(=O)NC(CO)C(=O)O)c1O)[C@H](OC1OC(C)C(N(C)C)C(OC4OCC(O)C(O)C4O)C1O)[C@H]3O)C2=O	D49	-	1.6 µg/mL
C[C@@H]1[C@H](O)[C@@H](C)/C=C/C=C/C=C/C=C/C=C/C=C/C=C/[C@H](O[C@@H]2O[C@H](C)[C@@H](O)[C@H](N)[C@@H]2O)C[C@@H]2O[C@](O)(C[C@@H](O)C[C@@H](O)[C@H](O)CC[C@@H](O)C[C@@H](O)CC(=O)O[C@H]1C)C[C@H](O)[C@H]2C(=O)O	Clinical isolate (IM 983040)	broth dilution	0.13 µg/mL
COc1ccc(/C=C2\CS(=O)c3ccccc3C2=O)cc1	93/V	-	25 µg/mL
CCC(C)n1ncn(-c2ccc(N3CCN(c4ccc(OC[C@H]5CO[C@](Cn6cncn6)(c6ccc(Cl)cc6Cl)O5)cc4)CC3)cc2)c1=O	DUMC100.91	-	0.008 µg/mL
Oc1cccc(C=Nc2ccccc2O)c1	VM-MCMMPI	broth dilution	4 µg/mL
COc1ccccc1/C=C1\CSc2ccccc2C1=O	93/V	-	25 µg/mL
Oc1ccccc1N=Cc1ccc2c(c1)OCO2	28JF	broth dilution	11.3 µg/mL
Cn1nc(Cc2ccc(Cl)cc2)c2ccccc2c1=O	Clinical isolate (IM 972751)	broth dilution	62.5 µg/mL
Oc1ccccc1N=Cc1ccccc1	GM	broth dilution	5 µg/mL
C[C@@H](c1ncncc1F)[C@](O)(Cn1cncn1)c1ccc(F)cc1F	B 36535	broth dilution	0.031 µg/mL
O=C1/C(=C/c2ccc(F)cc2)CCc2ccccc21	Farwania	-	25 µg/mL
CC(C(O)(Cn1cncn1)c1ccc(F)cc1F)S(C)(=O)=O	R717 (AZOLE-R)	-	20 µM
Oc1ccc(O)c(C=Nc2ccccc2O)c1	F-10	broth dilution	11.3 µg/mL
COc1ccc2c(c1)C(=O)/C(=C/c1ccc3c(c1)OCO3)CO2	93/V	-	25 µg/mL
CCCCCOc1ccc(-c2cc(-c3ccc(C(=O)N[C@H]4C[C@@H](O)[C@@H](O)NC(=O)[C@@H]5[C@@H](O)[C@@H](C)CN5C(=O)[C@H]([C@H](O)CC(N)=O)NC(=O)[C@H]([C@H](O)[C@@H](O)c5ccc(O)c(OS(=O)(=O)O)c5)NC(=O)[C@@H]5C[C@@H](O)CN5C(=O)[C@H]([C@@H](C)O)NC4=O)cc3)no2)cc1	FMR 8416	-	64 µg/mL
Oc1ccccc1N=Cc1ccc(F)cc1	ATCC 24067	broth dilution	4 µg/mL

Repeating the final 2 entries:

CCCCCOc1ccc(-c2cc(-c3ccc(C(=O)N[C@H]4C[C@@H](O)[C@@H](O)NC(=O)[C@@H]5[C@@H](O)[C@@H](C)CN5C(=O)[C@H]([C@H](O)CC(N)=O)NC(=O)[C@H]([C@H](O)[C@@H](O)c5ccc(O)c(OS(=O)(=O)O)c5)NC(=O)[C@@H]5C[C@@H](O)CN5C(=O)[C@H]([C@@H](C)O)NC4=O)cc3)no2)cc1 ; strain or isolate: FMR 8416 ; result: 64 µg/mL
Oc1ccccc1N=Cc1ccc(F)cc1 ; strain or isolate: ATCC 24067 ; method: broth dilution ; result: 4 µg/mL